Assay results from publication PMC6723440 (Toxins, 2019).

What was measured:
[1] = human exposure studies to DON; cited from earlier work
[2] = Phase I microsomal incubation (NADPH), LC-HRMS; details: incubation of AFB1, phase I

## CC1=C[C@H]2O[C@@H]3[C@H](O)C[C@](C)([C@@]2(CO[C@@H]2O[C@H](C(=O)O)[C@@H](O)[C@H](O)[C@H]2O)[C@H](O)C1=O)[C@]31CO1
[1]
  predominant species in urine: 49%

## CC1=C[C@H]2O[C@@H]3[C@H](O[C@@H]4O[C@H](C(=O)O)[C@@H](O)[C@H](O)[C@H]4O)C[C@](C)([C@@]2(CO)[C@H](O)C1=O)[C@]31CO1
[1]
  predominant species in urine: 14%

## COc1cc2c(c3oc(=O)c4c(c13)CCC4O)C1C=COC1O2 (stereo not drawn)
[2]
  metabolite generated from AFB1: < 1%
